Source: patent US20220251174A1 (published 2022)

These binders were tested against SARS-CoV-2 Spike protein (D614G) on authentic virus BetaCoV/Munich/BavPat1/2020 (assay: cell-based or functional assay).

Row | Binder | Live virus IC50 (µg/mL) (printed 'Love Virus')
1 | 22-E7 (full-length human IgG1) (antibody, V domains shown) VH: QVQLVESGGGVVQPGTSLRLSCAASGFTFNNYPMFWVRQAPGKGLEWLALISYDGNHKVYADSVKGRFTISRDNAKNTLYLQMHSLRAEDTALYYCASDLSGAEDSWGQGTLVTVSS VL: QSALTQPASVSGSPGQSITISCTGTSSDVGGYNYVSWYQQHPGKAPKLLIYEVSNRPSGVSNRFSGSKSGNTASLTISGLQAEDEADYYCSSYTSSSTWVFGGGTKLTVL | > 100
2 | 30-C5 (full-length human IgG1) (antibody, V domains shown) VH: QVQLVESGGGVVQPGRSLRLSCAASGFTFSNYGMHWVRQAPGKGLEWVAVISYDGSIEYYADSVKGRFTISRDNSSNTLYLQMNSLRAEDTAVYYCARDEDGAFDIWGQGTTVTVSS VL: DIVMTQSPESLAVSLGERATINCKSSESVSYSSSNKNYLSWYQQIPGQPPKLLIYWASTRESGVPDRFSGSGSGTDFTLTISSLQAEDVAVYYCQQYYSSPLTFGGGTKVEIK | > 100
3 | 23-A11 (full-length human IgG1) (antibody, V domains shown) VH: QVQLVESGGGVVQPGRSLRLSCAASGFTFSSYGMHWVRQAPGKGLEWVAVISYDGSNKYYADSVKGRFTISRDNSKNTLYLQMNSLRAEDTAVYYCAKEGELRGAFDIWGQGTMVTVSS VL: SYVLTQPPSVSVAPGKTARITCGGDNIESKYVHWYQQKPGQAPVLVIYYDTDRPSGIPERFSGANSGNSATLTISRVEAGDEADYYCQVWDRTSGHFVFGPGTKVTVL | > 100
4 | 8-A2 (full-length human IgG1) (antibody, V domains shown) VH: QVQLVQSGAEVKKPGASVKVSCKASGYTFTGYYLHWVRQAPGQGLEWMGRINPNSGGTNYAQKFQGRVTMTRDTSISTAYMELSRLTSDDTAVYYCLAVAGTGGDAFDIWGQGTTVTVSS VL: DIQMTQSPSTLSASVGDRVTITCRASQSISSWLAWYQQKPGKAPKLLIYAASSLESGVPSRFSGSGSGTDFTLTISSLQPEDFATYYCQQGHSFPLTFGGGTKVDIK | > 100
5 | 2-A6 (full-length human IgG1) (antibody, V domains shown) VH: QVTLRESGPALVKPTQTLTLTCTFSGFSLNTRGMSVSWIRQPPGKALEWLALIDWEDDKFYRTSLMTRLTISKDIFKNQVVLTMTNVDPVDTGTYYCARTYSVGVKYFGMDVWGQGTTVTVSS VL: SSELTQDPAVSVALGQTVRITCQGDSLRNYYASWYRQEPGQAPILLIYGGNYRPSGIPDRFSGSSSGNTASLTITGAQAEDEADYYCNSRDSSGNHVVFGGGTKLTVL | > 100
6 | 11-H1 (full-length human IgG1) (antibody, V domains shown) VH: not shown VL: QSVLTQPPSVSEAPRQRVTISCSGSSSNIGNNAVNWYQQLPGQAPRLLIYYDNLLPSGVSDRFSASTSGTSASLAISDLRSEDEADYYCASWDDRLDSPVFGGGTKLTVL | > 100
7 | 22-E8 (full-length human IgG1) (antibody, V domains shown) VH: QVQLVQSGAEVKKPGSSVKVSCKASGGTFSSYAISWVRQAPGQGLEWMGGIIPIFGTTNYAQKFQGRVTITADESTSTAYMELSSLRSEDTAVYYCARDHGYYYGMDVWGQGTTVTVSS VL: QSVLTQPSSVSAAPRQRVTLSCSGGDSNIGQNGVNWYLHVPGKAPRLVVYYDYLVSAGMSARFSGSRSGTSASLAISGLQSEDEGVYYCASWDDSLSAWVFGGGTKLTVL | > 100
8 | 24-B8 (full-length human IgG1) (antibody, V domains shown) VH: QVQLVQSGAEVKKPGSSVKVSCKASGGTFSNYAISWVRQAPGQGLEWMGGIIPILDTTNYAQKFQGRVTITADESTSTAYMELNSLRSEDTAVYYCVREEGFDYWGQGTLVTVSS VL: QSVLTQPSSLSASPGASASLTCTLRSGINVGAYNIYWYQQKPGSPPQFVLRYNSDSDNQQGSGVPSRFSGSKDASANAGILLISGLQSEDEAEYYCMIWRSSAWVFGGGTKLTVL | > 100
9 | 22-F7 (full-length human IgG1) (antibody, V domains shown) VH: QVQLVESGGGVVQPGRSLRLSCAASGFSFTNYGMHWVRQAPGKGLEWVAVISYDGSIKYYEDSLKGRFTVSRDNSKKTLYLQMNSLRAEDTAVYYCTRERGTGIDYWGLGTLVTVSS VL: QSALTQPASVSGYPGQSITLSCTGTKSDIGAYNYVSWYQQHPGKAPKLMVYDVSNRPSGLSNRFSGSKSDNTASLTISGLQAEDEAHYYCSSYTTSGTVVFGGGTKVTVL | > 100
10 | 5-B6 (full-length human IgG1) (antibody, V domains shown) VH: QVQLVQSGAEVKKPGSSVKVSCKASGGTFSSYAISWVRQAPGQGLEWVGGIIPMFNSASYAQKFQGKVTITADKATNTAYMELSSLRSEDTAVYYCARESSGYYYVSNWFDPWGQGTLVTVSS VL: QSVLTQPSSVSGAPGQRVTISCTGSSSNIGAGYDVHWYQQIPGTAPRLLIYANSGRASGVPDRFSGSKSGTSASLAITGLQAEDEADYYCQSYDSSLSGVVFGGGTKLTVL | > 100
11 | 8-D4 (full-length human IgG1) (antibody, V domains shown) VH: EVQLVQSGAEVKKPGESLKISCKGSGYSFTSYWIGWVRQMPGKGLEWMGIIYPGDSDTRYSPSFQGQVTISADKSISTAYLQWSSLKASDTAMYYCARNPSLYSSPTDYWGQGTLVTVSS VL: not shown | > 100
12 | 13-A1 (full-length human IgG1) (antibody, V domains shown) VH: EVQLVQSGAEVKKPGESLKISCKGSGYSFTSYWIGWVRQMPGKGLEWMGIIYPGDSDTRYSPSFQGQVTISADKSISTAYLQWSSLKASDTAMYYCARYLSSEGMDVWGKGTTVTVSS VL: QSVLTQPPSASGTPGQRVTISCSGRSSNIGSNPVNWYQQLPGTAPKLLIYNNIQRPSGVPDRFSGSKSGTSASLAISGLQSEDEAVYYCASWDDSLNEGVFGGGTQLTVL | > 100
13 | 27-A11 (full-length human IgG1) (antibody, V domains shown) VH: QVQLVQSGAEVKKPGASVKVSCKASGYTFTSYYMHWVRQAPGQGLEWMGIIDPSGGSTSYAQKFQGRVTLTRDTSTSTVYMELSSLRSEDTAVYYCARSRDGYIDDAFDIWGQGTLVTVSS VL: QSVLTQPPSVSAAPGQKVTISCSGSSSNIGNNYVSWYQQLPGTAPKLLIYDNNKRPSGIPDRFSGSKSGTSATLGITGLQTGDEADYYCGTWDSSLSAGVFGGGTKLTVL | > 100
14 | 22-D9 (full-length human IgG1) (antibody, V domains shown) VH: QVQLVQSGAEVKKPGSSVNVSCKTSGGTFNTYSINWVRQAPGQGLEWMGEIIPIFDKPNYAQKFQGRVTITADESTSTAYMELTSLRSDDTAVYYCARGTGYYYGMDVWGQGTTVTVSS VL: QSVLTQPPSVSGAPRQTVTISCFGSRSNIGNYPVNWYHQVPGKAPKVVVYYDDLLPSGISDRFSGYKSGTSASLTISGLRSEDEADYYCATWDDSLNVWVFGGGTKLTVL | > 100
15 | 21-F2 (full-length human IgG1) (antibody, V domains shown) VH: QVQLVQSGAEVKKPGASVTVSCKTSGYIFTNYDINWVRQAPGQGLEWVGWVNPNSGKVGYAQKFQGRVIMTRSDSESTAYMELTNLTSDDTAVYYCARGHTDFWGQGTLVTVSS VL: QSVLTQPPSVSEAPRQRVTISCSGSSSNIGNNAVNWYQQLPGRAPKLLIYYDDLLPSGVSDRFSGSKSGTSASLAISGLQSEDEADYYCAAWDDSLNGVVFGGGTQLTVL | 10.5
